Results on 2 compounds are retold here after publication PMC12040169 (PLOS Biology, 2025).

This data set relates to HeLa. The note with it: bulk resorufin, single well; 28.5 h, 10 µM.

Consider `NCCSP(=O)(O)O`, for which the “% viability” value is given as 0.8485%.
As to `O=C(OC1CN2CCC1CC2)c1ccccc1` (centres unmarked), the “% viability” value is given as 0.9303%.
